Results of unrelated studies side by side (data: NIAID ChemDB).

Shared fields: whole-cell or culture tests; organism: Sindbis virus; method: cytopathic effect; measure: EC50

ECn: concentration that inhibits the pathogen or its effect by n%. Conditions beyond the fields shown may differ between rows.

structure | cells | value
CC[C@H](O)C1=C[C@@H](n2cnc3c(N)ncnc32)[C@H](O)[C@@H]1O | VERO | >250 µg/mL
OC[C@H]1O[C@H](c2cncc(Br)c2)[C@@H](O)[C@H]1O | VERO | ≥100 µg/mL
CC=NC(=N)c1nc(-c2cccc(C)c2)n(COCCO)n1 | VERO | >200 µg/mL
CC1(C)[C@@H](CO)CC[C@@]1(C)Cn1nnc2c(=O)[nH]cnc21 | VERO | >400 µg/mL
Nn1c(SCC(=O)O)nnc1-c1cn(-c2ccccc2)nc1-c1ccccc1 | VERO | >80 µg/mL
CC1(C)[C@@H](CCO)C[C@H]1n1nnc2c(=O)[nH]c(N)nc21 | VERO | >400 µg/mL
CCC(Sc1ncnc2c1cnn2COCCO)C(N)=O | VERO | >400 µg/mL
CC(C)CS[C@@H]1C=C[C@H](n2cnc3c(N)ncnc32)C1 | HeLa | >3.2 µg/mL
CC=NC(=N)c1nc(-c2cccc(C)c2)n(Cc2ccccc2)n1 | VERO | >10 µg/mL
S=c1[nH]nc(-c2cn(-c3ccccc3)nc2-c2ccccc2)o1 | VERO | >16 µg/mL
Cc1cn([C@@H]2OC[C@H](CO)[C@H]2N=[N+]=[N-])c(=O)[nH]c1=O | VERO | >80 µg/mL
CON1CCc2c([nH]c3ccccc23)[C@@H]1[C@@H](N)CSC | VERO | >40 µg/mL
NC(=S)c1cncc([C@@H]2O[C@H](CO)[C@@H](O)[C@@H]2O)c1 | VERO | ≥100 µg/mL
CC1(CO)CCC(Cn2ccc(=O)[nH]c2=O)C1(C)C | VERO | >400 µg/mL
CC1(CO)CCC(Cn2nnc3c(=O)[nH]c(N)nc32)C1(C)C | VERO | >200 µg/mL
OC[C@H]1O[C@@H](c2cc(Cl)c(F)cc2F)C[C@@H]1O | VERO | >80 µg/mL
CC=NC(=N)c1nc(-c2ccccc2)n(COCCO)n1 | VERO | >200 µg/mL
CC1(C)[C@@H](CO)CC[C@@]1(C)Cn1cnc2c(Cl)ncnc21 | VERO | >400 µg/mL
CC1(C)[C@@H](CCO)C[C@H]1n1nnc2c(N)ncnc21 | VERO | >100 µg/mL
CO[C@H](CO)[C@@H](O)CCn1cnc2c(=O)[nH]c(N)nc21 | VERO | >400 µg/mL
N#CC1=CSc2nnc(-c3cn(-c4ccccc4)nc3-c3ccccc3)n2N=C1N | VERO | >16 µg/mL
Nc1nc2c(ccn2[C@H]2CO[C@@H](CO)C2)c(=O)[nH]1 | VERO | >400 µg/mL
CC1(C)[C@@H](CO)CC[C@@]1(C)Cn1nnc2c(Cl)ncnc21 | VERO | >400 µg/mL
CC(Sc1ncnc2c1cnn2CCCCO)C(N)=O | VERO | >400 µg/mL
Nc1nc2c(ncn2[C@H]2CO[C@@H](CO)C2)c(=O)[nH]1 | VERO | >400 µg/mL
CO[C@H](CO)[C@@H](O)CCn1cc(C)c(=O)[nH]c1=O | VERO | >400 µg/mL
CC1(CO)CCC(Cn2nnc3c(Cl)nc(N)nc32)C1(C)C | VERO | >100 µg/mL
C=C(N=CC)c1nc(-c2ccccc2)n([C@@H]2O[C@H](CO)[C@@H](O)[C@H]2O)n1 | VERO | >100 µg/mL
NC1CSCCN2CCc3c([nH]c4ccccc34)[C@H]12 | VERO | 2 µg/mL
O=c1[nH]n2c(-c3cn(-c4ccccc4)nc3-c3ccccc3)nnc2s1 | VERO | >80 µg/mL
Nc1ncnc2c1ncn2[C@@H]1O[C@H](CO)[C@](O)(C(F)(F)F)[C@H]1O | VERO | >200 µg/mL
Cc1cn([C@H]2O[C@H](CO)[C@@H](N=[N+]=[N-])[C@H]2F)c(=O)nc1N | VERO B | >400 µg/mL
NC1CCCON2CCc3c([nH]c4ccccc34)[C@H]12 | VERO | 7 µg/mL
Nc1ncnc2c1ncn2[C@@H]1O[C@H](C=NOCc2ccccc2)[C@@H](O)[C@H]1O | VERO | >100 µg/mL
C#C[C@H](O)C1=C[C@@H](n2cnc3c(N)ncnc32)[C@H](O)[C@@H]1O | VERO | >100 µg/mL
CSCC1=C[C@@H](n2cnc3c(N)ncnc32)[C@H](O)[C@@H]1O | VERO | >200 µg/mL
Nc1nc2c(ncn2[C@H]2OC[C@@H](CO)C2O)c(=O)[nH]1 | VERO | >16 µg/mL
N#Cc1cncc([C@H]2O[C@H](CO)[C@H](O)[C@@H]2O)c1 | VERO | ≥100 µg/mL
NC1=CC(c2ccccc2)=Nn2c(nnc2-c2cn(-c3ccccc3)nc2-c2ccccc2)S1 | VERO | >16 µg/mL
Nc1ncnc2c1ncn2[C@@H]1O[C@H](C=O)[C@@H](O)[C@H]1O | VERO | >200 µg/mL
Cc1cn(CC[C@H](O)CCO)c(=O)[nH]c1=O | VERO | >400 µg/mL
C=C[C@H](O)C1=C[C@@H](n2cnc3c(N)ncnc32)[C@H](O)[C@@H]1O | VERO | >100 µg/mL
O=C1CSc2nnc(-c3cn(-c4ccccc4)nc3-c3ccccc3)n2N1 | VERO | >16 µg/mL
CC1(CO)CCC(Cn2cnc3c(=O)[nH]cnc32)C1(C)C | VERO | >200 µg/mL
c1ccc(C2=Nn3c(nnc3-c3cn(-c4ccccc4)nc3-c3ccccc3)SC2)cc1 | VERO | >16 µg/mL
C=C(N=CC)c1nc(-c2ccc(C)cc2)n([C@@H]2O[C@H](CO)[C@@H](O)[C@H]2O)n1 | VERO | >40 µg/mL
CC1(CO)CCC(Cn2nnc3c(N)nc(N)nc32)C1(C)C | VERO | >200 µg/mL
CC1(C)[C@@H](CCO)C[C@H]1n1nnc2c(=O)[nH]cnc21 | VERO | >100 µg/mL
Nc1ncnc2c1ncn2[C@@H]1O[C@H](/C=N/O)C[C@H]1O | VERO | >400 µg/mL
CC1(CO)CCC(Cn2nnc3c(Cl)ncnc32)C1(C)C | VERO | >40 µg/mL
NC(=O)CSc1ncnc2c1cnn2COCCO | VERO | >400 µg/mL
Nc1nc2c(ncn2CC[C@H](O)CCO)c(=O)[nH]1 | VERO | >400 µg/mL
OC[C@H]1O[C@@H](c2cc(/C=C/Br)c(F)cc2F)C[C@@H]1O | VERO | >16 µg/mL
Cc1cn([C@@H]2O[C@H](CO)[C@](O)(C(F)(F)F)[C@H]2O)c(=O)[nH]c1=O | VERO | >200 µg/mL
Nc1ncnc2c1ncn2[C@H]1C[C@@H](CO)[C@H](O)[C@@H]1O | VERO | >400 µg/mL
Cc1cn([C@@H]2OC[C@H](CO)[C@H]2O)c(=O)[nH]c1=O | VERO | >80 µg/mL
Nc1ncnc2c1ncn2[C@@H]1C[C@H](CO)[C@@H](O)[C@H]1O | VERO | 2 µg/mL
[N-]=[N+]=N[C@H]1[C@@H](F)[C@H](n2cnc3c(N)ncnc32)O[C@@H]1CO | VERO B | >200 µg/mL
CON=C[C@H]1O[C@@H](n2cnc3c(N)ncnc32)[C@H](O)[C@@H]1O | VERO | >100 µg/mL
Nc1ncnc2c1ncn2[C@@H]1C=C(CCl)[C@@H](O)[C@H]1O | VERO | >40 µg/mL
CC=NC(=N)c1nc(-c2ccc(OC)cc2)n(Cc2ccccc2)n1 | VERO | >10 µg/mL

A second listing of 7 rows from above:

structure	cells	value
CC(Sc1ncnc2c1cnn2CCCCO)C(N)=O	VERO	>400 µg/mL
OC[C@H]1O[C@H](c2cncc(Br)c2)[C@@H](O)[C@H]1O	VERO	≥100 µg/mL
NC(=O)CSc1ncnc2c1cnn2COCCO	VERO	>400 µg/mL
Nc1nc2c(ncn2CC[C@H](O)CCO)c(=O)[nH]1	VERO	>400 µg/mL
CC[C@H](O)C1=C[C@@H](n2cnc3c(N)ncnc32)[C@H](O)[C@@H]1O	VERO	>250 µg/mL
CC1(C)[C@@H](CCO)C[C@H]1n1nnc2c(=O)[nH]c(N)nc21	VERO	>400 µg/mL
CC1(C)[C@@H](CO)CC[C@@]1(C)Cn1cnc2c(Cl)ncnc21	VERO	>400 µg/mL